PubChem BioAssay AID1259414 | Drosophila RNAi Screening Center – 2018
The screen tested about 24,000 reagents; shown is an unselected part of those that have a named target and a result. Of all reagents, about 1,210 (5%) got an active call. 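Inactive calls also include excluded dsRNAs with several or no targets, genes unexpressed in JW18, and well A1, regardless of score.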 The numbers tell different reagents against one gene apart.

Screen: 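Fly genes that alter Wolbachia amount inside host cells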 (primary screen)
Cell system: Drosophila JW18 cells infected with Wolbachia
Reagents: long dsRNA against Drosophila genes, 0.25 µg dsRNA per well of a 384-well plate
Timing: 5 days
Challenge: cells persistently infected with Wolbachia before knock-down; no added drug
Read-out: 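Automated imaging of bacterial rRNA staining divided by host cell count, reported as plate-normalised robust z-score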
Reading the numbers: Wolbachia per cell robust z: higher = more Wolbachia per host cell than the plate typical
Active means: 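Hit when robust z is 1.5 or more, or -1.5 or less, in at least two of three replicates; excludes dsRNAs with several or no targets, genes not expressed in JW18 and well A1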

target,dsRNA no.,"Wolbachia per cell robust z, rep 1","Wolbachia per cell robust z, rep 2","Wolbachia per cell robust z, rep 3",Call
CG5707,1,-0.0744,0.665,-9.09,inactive
CG5707,2,1.22,-0.197,0.558,inactive
lncRNA:CR32385 (long non-coding RNA:CR32385),1,0.132,-1.31,-0.0465,inactive
Sur (Sulfonylurea receptor),1,0.0574,-0.0491,0.521,inactive
Sur (Sulfonylurea receptor),2,-0.00305,0.492,0.803,inactive
CG7567,1,-5.32,-0.801,-2.53,inactive
CG14237,1,0.112,1.18,1.62,inactive
CG10543,1,-0.143,-0.0493,0.314,inactive
CG42710,1,0.745,0.583,1.28,inactive
CG8517,1,0.533,-0.133,-0.347,inactive
CG11474,1,-3.85,0.318,-0.0575,inactive
Etf-QO (Electron transfer flavoprotein-ubiquinone oxidoreductase),1,0.856,0.842,0.644,inactive
sob,1,-6.11,1.18,-7.56,inactive
sob,2,0.998,0.926,0.913,inactive
CG4377,1,-0.613,-1.62,-0.263,inactive
CG4377,2,0.746,0.0659,0.572,inactive
CCT5 (Chaperonin containing TCP1 subunit 5),1,1.59,-0.537,2.57,active
CCT5 (Chaperonin containing TCP1 subunit 5),2,0.822,-0.207,0.62,inactive
CG10725,1,0.864,-0.59,-0.675,inactive

Next part (2 carried over from the part before).
target,dsRNA no.,"Wolbachia per cell robust z, rep 1","Wolbachia per cell robust z, rep 2","Wolbachia per cell robust z, rep 3",Call
CCT5 (Chaperonin containing TCP1 subunit 5),2,0.822,-0.207,0.62,inactive
CG10725,1,0.864,-0.59,-0.675,inactive
"SmydA-8 (SET and MYND domain containing, arthropod-specific, member 8)",1,-1.64,-0.61,0.943,inactive
"SmydA-8 (SET and MYND domain containing, arthropod-specific, member 8)",2,-1.78,-0.59,0.174,inactive
CG31473,1,-0.574,0.675,-0.392,inactive
CG31473,2,0.938,0.0466,-0.944,inactive
CG11095,1,0.0209,-0.609,0.486,inactive
CG11095,2,-0.292,-1.27,-0.188,inactive
Cdk7 (Cyclin-dependent kinase 7),1,-0.644,-0.721,1.14,inactive
Cdk7 (Cyclin-dependent kinase 7),2,-0.0719,-8.13,-0.931,inactive
VhaAC39-1 (Vacuolar H[+] ATPase AC39 subunit 1),1,0.107,-1.14,-0.644,inactive
VhaAC39-1 (Vacuolar H[+] ATPase AC39 subunit 1),2,0.137,1.12,1.85,inactive
